Pooled drug test results. Numbers come from NIAID ChemDB, via PubChem.

All rows: growth or infection tests; agent: HIV-1; endpoint: fold resistance

Fold resistance has wild type as its base. Neighbouring rows are from separate reports.

Cc1ccnc2c1NC(=O)c1cccnc1N2C1CC1 ; mutations: AMD3100-resistant ; strain: NL4-3 ; result: 12
CCc1cc(NCc2nc3c(Cl)ccc(Cl)c3o2)c(=O)[nH]c1C ; cell line: CEM ; read by: syncytia ; mutations: RT-L100I ; strain: IIIB BHAP(RT-L100I) ; result: 14.3
O=C1Nc2ccc(Cl)cc2[C@@](C#CC2CC2)(C(F)(F)F)N1 ; mutations: RT-K103N ; result: 5
Cc1cn([C@@H]2O[C@H](CO[Si](C)(C)C(C)(C)C)[C@@]3(OS(=O)(=O)C=C3N)[C@H]2O[Si](C)(C)C(C)(C)C)c(=O)[nH]c1=O ; mutations: RT-Y181C ; strain: UC781-RS(RT-Y181C ; result: >200
O=C1c2ccccc2C(=O)N1CCOC(=S)N(C(=O)c1ccccc1)c1ccc(Cl)cc1 ; cell line: MT-4 ; read by: cytopathic effect / MTT ; mutations: RT-Y181C ; strain: N119 nevirapine-resistant (RT Y181C) ; result: >1000
CC(C)=CCOc1cc(NC(=S)c2ccsc2C)ccc1Cl ; mutations: RT-Y181C ; strain: UC781-RS(RT-Y181C ; result: 60
CCn1c(=O)c(C)cn([C@@H]2O[C@H](CO[Si](C)(C)C(C)(C)C)C3(OS(=O)(=O)C=C3N)[C@H]2O[Si](C)(C)C(C)(C)C)c1=O ; cell line: MT-4 ; read by: cytopathic effect / MTT ; mutations: RT-E138K ; strain: IIIB ; result: 2032
Cc1cn([C@H]2C[C@H](N=[N+]=[N-])[C@@H](CO)O2)c(=O)[nH]c1=O ; cell line: HeLa ; read by: luciferase ; mutations: RT-T69K K70G V75I F77L F116Y Q151M M184V ; strain: NRTI resistant ; result: 274.3
Cc1ccccc1NC(=O)COc1ccc(Cl)cc1C(=O)c1cc(F)cc(F)c1 ; cell line: MT-4 ; read by: cytopathic effect / MTS ; mutations: RT-Y181C ; strain: Nevirapine-resistant ; result: 1.44
CCN1C(=O)N(Cc2ccccc2)S(=O)(=O)c2cscc21 ; cell line: CEM ; read by: syncytia ; mutations: RT-E138K ; strain: IIIB ; result: >207
CC(C)=CCN1Cc2cccc3[nH]c(=O)n(c23)CC1C ; mutations: RT-Y181C ; strain: UC781-RS(RT-Y181C ; result: 118
c1cc(CN2CCCNCCNCCCNCC2)ccc1CN1CCCNCCNCCCNCC1 ; mutations: DS-resistant ; strain: NL4-3 ; result: 1
O=c1[nH]cnc2c1ncn2[C@H]1CC[C@@H](CO)O1 ; cell line: MT-4 ; read by: cytopathic effect / MTT ; mutations: RT-E138A ; strain: Recombinant mutant ; result: 0.9
Cc1cn([C@H]2C=C[C@@H](CO)O2)c(=O)[nH]c1=O ; cell line: MT-2 ; read by: cytopathic effect / XTT ; mutations: RT-K65R H221Y ; strain: Site-directed mutant ; result: 2.3
CC(C)=CCN1Cc2cccc3[nH]c(=S)n(c23)C[C@@H]1C ; cell line: MT-2 ; read by: RT activity ; mutations: RT-L92I ; strain: PD165BC(RT-L92I) ; result: 0.304
Nc1cccc(CN2C(=O)N(Cc3ccc4[nH]nc(-c5ccc(F)cc5)c4c3)[C@H](Cc3ccccc3)[C@H](O)[C@@H](O)[C@H]2Cc2ccccc2)c1 ; cell line: MT-2 ; mutations: PR-M46I L63P A71V V82F I84V ; strain: Ritonavir-resistant (PR M46I L63P A71V V82F I84V) ; result: >1.11
Cc1cccc(S(=O)(=O)c2c(C(=O)NNCCO)[nH]c3ccc(Cl)cc23)c1 ; cell line: MT-4 ; read by: cytopathic effect / MTT ; mutations: RT-Y181C ; result: 14
O=C1c2ccccc2C(=O)N1CCOC(=S)N(C(=O)c1ccc(Cl)cc1)c1ccc(Cl)cc1 ; cell line: MT-4 ; read by: cytopathic effect / MTT ; mutations: RT-K103R V179D P225H ; strain: IIIB ; result: >4000
CC(C)=CCN1Cc2cc(Cl)cc3[nH]c(=S)n(c23)C[C@@H]1C ; cell line: HT4 + HT4 LacZ-1 ; read by: plaque count ; mutations: RT-Y181C ; strain: HXB2 ; result: 40.9
COc1ccc(S(=O)(=O)O)cc1N=Nc1c(S(=O)(=O)O)cc2cc(Nc3nc(Nc4ccccc4)nc(Nc4cc(C)c(N=Nc5cc(S(=O)(=O)O)cc6cc(S(=O)(=O)O)cc(O)c56)cc4OC)n3)ccc2c1O ; cell line: MT-4 ; read by: cytopathic effect / MTT ; mutations: GP41-L33S ; strain: NL4-3 ; result: 0.5
c1ccc(-c2cc(CN3CCCNCCNCCCNCC3)cc(CN3CCCNCCNCCCNCC3)c2)cc1 ; cell line: MT-4 ; read by: cytopathic effect / MTT ; mutations: AMD3100-resistant ; strain: NL4-3 ; result: 2.1
Fc1ccccc1CCNC(=S)Nc1ccc(Br)cn1 ; cell line: PBMC ; read by: p24 ; mutations: RT-Y181C ; strain: A17 ; result: >330
O=C1c2ccccc2C(=O)N1CCOC(=S)N(C(=O)c1ccccc1)c1ccccc1 ; cell line: MT-4 ; read by: cytopathic effect / MTT ; mutations: RT-K103R V179D P225H ; strain: IIIB ; result: >250
CC(C)=CCN1Cc2cccc3[nH]c(=S)n(c23)C[C@@H]1C ; cell line: CEM ; mutations: RT-E138K ; strain: TSAO-m3T-resistant (RT E138K) ; result: 0.778
CC(C)=CCN1Cc2cc(Cl)cc3[nH]c(=S)n(c23)C[C@@H]1C ; cell line: CEM ; read by: syncytia ; mutations: RT-K103N ; strain: IIIB TIBO R82913-resistant (RT K103N) ; result: 215
Nc1nc(NC2CC2)c2ncn([C@H]3C=C[C@@H](CO)C3)c2n1 ; cell line: MT-2 ; read by: cytopathic effect / XTT ; mutations: RT-K65R ; strain: Site-directed mutant ; result: 2.9
Cc1cn([C@H]2C[C@H](N=[N+]=[N-])[C@@H](CO)O2)c(=O)[nH]c1=O ; cell line: CEM + CEM-SS ; read by: XTT ; mutations: RT-K101E ; strain: NL4-3 1 (RT K101E) ; result: 2
CC(C)(C)NC(=O)[C@@H]1C[C@@H]2CCCC[C@@H]2CN1C[C@@H](O)[C@H](Cc1ccccc1)NC(=O)[C@H](CC(N)=O)NC(=O)c1ccc2ccccc2n1 ; cell line: MT-4 ; read by: p24 ; mutations: PR-L10F V32I M46I I47V I84V T91S ; strain: NL4-3.C14 (PR L10F V32I M46I I47V I84V T91S) ; result: 0.5
Cc1cn([C@@H]2O[C@H](CO[Si](C)(C)C(C)(C)C)C3(OS(=O)(=O)C=C3N)[C@H]2O[Si](C)(C)C(C)(C)C)c(=O)n(C)c1=O ; cell line: CEM ; read by: syncytia ; mutations: RT-Y181C ; strain: IIIB PYR(RT-Y181C) ; result: 73.3
Cc1cc(C)cc(S(=O)(=O)c2c(C(=O)N[C@@H](C)c3ccccc3)[nH]c3ccc(Cl)cc23)c1 ; cell line: MT-4 ; read by: MTT ; mutations: Y188L ; strain: NL4-3 ; result: >5778
c1cc(CN2CCCNCCCNCCNCCC2)ccc1CN1CCCNCCCNCCNCCC1 ; cell line: MT-4 ; read by: cytopathic effect / MTT ; mutations: AMD3100-resistant ; strain: NL4-3 ; result: 66.25
O=S(=O)(c1ccccc1)c1ccccc1 ; mutations: RT-Y181C ; strain: UC781-RS(RT-Y181C ; result: >16.3
CN1C(=O)N(Cc2ccccc2)S(=O)(=O)c2cscc21 ; cell line: CEM ; read by: syncytia ; mutations: RT-E138K ; strain: IIIB ; result: >141
CC(=O)c1ccc(C)cc1NC(C(N)=O)c1c(Cl)cccc1Cl ; mutations: RT-Y181C ; strain: UC781-RS(RT-Y181C ; result: >100
Cc1cn([C@H]2C=C[C@@H](CO)O2)c(=O)[nH]c1=O ; cell line: MT-4 ; read by: cytopathic effect ; mutations: RT-A62V S68G T69D V75I F77L F116Y Q151M ; strain: BI-03.97 (HXB2(RT-A62V S68G T69D V75I F77L F116Y Q151M)) ; result: >40
O=C1N(Cc2ccccc2)c2cscc2S(=O)(=O)N1Cc1ccccc1 ; cell line: CEM ; read by: syncytia ; mutations: RT-Y188H ; strain: IIIB ; result: 4.33
Cc1cc(C)cc(S(=O)(=O)c2c(C(N)=O)[nH]c3ccc(Cl)cc23)c1 ; cell line: MT-4 ; read by: cytopathic effect / MTT ; mutations: RT-Y181C ; result: 8
CC(C)=CCC[C@]1(C)C=Cc2c(ccc3c2C(=O)C(O)=C(C2=C(C4=C(O)C(=O)c5c(ccc6c5C=C[C@@](C)(CCC=C(C)C)O6)C4=O)C(=O)c4c(ccc5c4C=C[C@@](C)(CCC=C(C)C)O5)C2=O)C3=O)O1 ; cell line: CEM + MT-4 ; mutations: gp120 V64A G145E N315K Q374P gp41 P731L T762I L763R W766stop ; strain: RF ; result: >1
CC(C)=CCN1Cc2cc(Cl)cc3[nH]c(=S)n(c23)C[C@@H]1C ; cell line: MT-4 ; read by: cytopathic effect / MTT ; mutations: RT-E138K ; strain: IIIB ; result: 3
Cn1c2ccccc2c2c1cc(C#N)c(=O)n2-c1ccc([N+](=O)[O-])cc1 ; cell line: HeLa ; read by: luciferase ; mutations: RT-D67N T69N M184V T215F K219Q ; strain: NRTI resistant ; result: 1.9
Cc1cc(C)cc(S(=O)(=O)c2c(C(=O)NC(C)C(=O)NC(C)c3ccccc3F)[nH]c3ccc(Cl)cc23)c1 ; cell line: MT-4 ; read by: cytopathic effect / MTT / absorbance ; mutations: Y188L ; strain: NL4-3 ; result: >25387
Cc1cn([C@H]2C[C@H](N=[N+]=[N-])[C@@H](CO)O2)c(=O)[nH]c1=O ; mutations: DS-resistant ; strain: NL4-3 ; result: 0.8
N#CCN1C(=O)N(Cc2ccccc2)S(=O)(=O)c2cscc21 ; cell line: CEM ; read by: syncytia ; mutations: RT-Y188H ; strain: IIIB ; result: ≥50
CC(C)=CCN1Cc2cccc3[nH]c(=S)n(c23)C[C@@H]1C ; cell line: PBMC ; read by: p24 ; mutations: RT-E89G ; strain: RT-M184V ; result: 0.13
Nc1ccn([C@@H]2CC[C@H](CO)O2)c(=O)n1 ; cell line: CEM + CEM-SS ; read by: RT activity ; mutations: RT-Y181C ; strain: N119 nevirapine-resistant (RT Y181C) ; result: 3.38
Cc1ccc(S(=O)(=O)c2c(C(=O)NNCCO)[nH]c3ccc(Cl)cc23)c(C)c1 ; cell line: MT-4 ; read by: cytopathic effect / MTT ; mutations: RT-K103N Y181C ; result: >250
CC(=O)c1ccc(C)cc1NC(C(N)=O)c1c(Cl)cccc1Cl ; cell line: MT-4 ; read by: cytopathic effect / MTT ; mutations: RT-E138A ; strain: Recombinant mutant ; result: 2.1
O=c1[nH]cnc2c1ncn2[C@H]1CC[C@@H](CO)O1 ; cell line: HeLa ; read by: luciferase ; mutations: RT-M41L A62V S68N G112S V118I M184V ; strain: Recombinant ; result: 0.7
c1cc(CCN2CCCNCCNCCCNCC2)ccc1CCN1CCCNCCNCCCNCC1 ; cell line: MT-4 ; read by: cytopathic effect / MTT ; mutations: AMD3100-resistant ; strain: NL4-3 ; result: >0.164
Cc1ccnc2c1NC(=O)c1cccnc1N2C1CC1 ; cell line: CEM + CEM-SS ; read by: XTT ; mutations: RT-D67N K70R T215Y K219Q ; strain: NL4-3(RT-4XAZT) ; result: 1
[N-]=[N+]=N[C@H]1C[C@H](n2ccc(N)nc2=O)O[C@@H]1CO ; cell line: MT-2 ; read by: p24 ; mutations: RT-D67N K70N T215F K219Q ; strain: AZT-resistant (RT D67N K70R T215F K219Q) ; result: 10.7
Cc1cn([C@@H]2O[C@H](CO[Si](C)(C)C(C)(C)C)C3(OS(=O)(=O)C=C3N)[C@H]2O[Si](C)(C)C(C)(C)C)c(=O)n(C)c1=O ; cell line: MT-4 ; read by: cytopathic effect / MTT ; mutations: RT-A98S E138A ; strain: Recombinant mutant ; result: 5.7
C/C=C/CSc1cc(NC(=S)c2ccsc2C)ccc1Cl ; cell line: CEM + CEM-SS ; read by: XTT ; mutations: RT-L100I T139I ; strain: Costatolide-resistant (RT L100I T139I) ; result: >40
C1CNCCNCCCN2CCCNCCNCCCN(C1)CC2 ; cell line: MT-4 ; read by: cytopathic effect / MTT ; mutations: AMD3100-resistant ; strain: NL4-3 ; result: >6.96
C#C[C@]1(CO)O[C@@H](n2cnc3c(N)nc(F)nc32)C[C@@H]1O ; mutations: RT-M184V ; result: 15.5
COc1ccccc1C(=O)Nc1ccc(Cl)c(C(=O)OC(C)C)c1 ; mutations: RT-Y181C ; strain: UC781-RS(RT-Y181C ; result: 7.77
O=C1c2ccccc2C(=O)N1CCOC(=S)N(C(=O)c1cccs1)c1ccc([N+](=O)[O-])cc1 ; cell line: MT-4 ; read by: cytopathic effect / MTT ; mutations: RT-Y181C ; strain: N119 nevirapine-resistant (RT Y181C) ; result: 0.109
CC(C)c1c(COC(N)=O)cn(Cc2ccncc2)c1Sc1cc(Cl)cc(Cl)c1 ; cell line: C8166 ; read by: p24 ; mutations: RT-Y181C ; result: <66.7
CCn1c(=O)c(C)cn([C@@H]2O[C@H](CO[Si](C)(C)C(C)(C)C)C3(OS(=O)(=O)C=C3N)[C@H]2O[Si](C)(C)C(C)(C)C)c1=O ; cell line: CEM ; read by: syncytia ; mutations: RT-K103N ; strain: IIIB TIBO R82913-resistant (RT K103N) ; result: 3.83
Cc1cc(S(N)(=O)=O)ncc1NC(=O)COc1ccc(Cl)cc1C(=O)c1cc(Cl)cc(C#N)c1 ; cell line: HeLa + HeLa-MAGI ; read by: β-galactosidase ; mutations: RT-Y181C ; strain: HXB2 ; result: 1
Cc1cc(C)cc(S(=O)(=O)c2c(C(=O)NNCCO)[nH]c3ccc(Cl)cc23)c1 ; cell line: MT-4 ; read by: cytopathic effect / MTT ; mutations: RT-K103N Y181C ; result: 3200
COc1ccc(OC)c(CCNC(=S)Nc2ccc(Br)cn2)c1 ; cell line: PBMC ; read by: p24 ; mutations: RT-K103N Y181C ; strain: A17 ; result: >8000
Nc1ccn([C@H]2CC[C@@H](CO)O2)c(=O)n1 ; cell line: MT-4 ; read by: cytopathic effect ; mutations: RT-A62V S68G T69D V75I F77L F116Y Q151M ; strain: BI-12.96 (HXB2(RT-A62V S68G T69D V75I F77L F116Y Q151M)) ; result: >23.4
CC(C)OC(=O)OCOP(=O)(CO[C@H](C)Cn1cnc2c(N)ncnc21)OCOC(=O)OC(C)C ; cell line: MT-4 ; read by: cytopathic effect / XTT / absorbance ; mutations: K65R ; strain: NL4-3 ; result: >16.7